Reference: PubChem BioAssay AID1259414 (Drosophila RNAi Screening Center, 2018)
In all, the deposit lists about 24,000 reagents; this is a random part of those with a known target gene and a result. In the full data, about 1,210 (5%) are marked active. 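Inactive calls also include excluded dsRNAs with several or no targets, genes unexpressed in JW18, and well A1, regardless of score.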 Unmarked entries are inactive. The numbers tell different reagents against one gene apart. Names joined by + are all predicted targets of the reagent.

Aim: 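Host factors increasing or decreasing Wolbachia levels in cultured fly cells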 (primary screen)
Cells: Drosophila JW18 cells infected with Wolbachia
Reagents: long dsRNA against Drosophila genes, 0.25 µg dsRNA per well of a 384-well plate
Time to read-out: 5 days
Treatment: cells persistently infected with Wolbachia before knock-down; no added drug
Read-out: 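Imaged fluorescence in situ signal for Wolbachia 23S rRNA per DAPI-counted host cell, given as a robust z-score within each plate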
Direction: Wolbachia per cell robust z: higher = more Wolbachia per host cell than the plate typical
Hit rule: 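Active if absolute robust z reaches 1.5 in two or more of three replicates, leaving out multi- or no-target dsRNAs, genes unexpressed in JW18 and A1 wells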

The first 2 entries as a preview:
CR18166 (GeneID 8673968) #1: Wolbachia per cell robust z, rep 1 = -0.119; Wolbachia per cell robust z, rep 2 = -1.49; Wolbachia per cell robust z, rep 3 = -0.666
CR18166 (GeneID 8673968) #2: Wolbachia per cell robust z, rep 1 = -0.284; Wolbachia per cell robust z, rep 2 = -1.43; Wolbachia per cell robust z, rep 3 = 0.578

The listing, from the start:
CR18166 (GeneID 8673968) #1: Wolbachia per cell robust z, rep 1 = -0.119; Wolbachia per cell robust z, rep 2 = -1.49; Wolbachia per cell robust z, rep 3 = -0.666
CR18166 (GeneID 8673968) #2: Wolbachia per cell robust z, rep 1 = -0.284; Wolbachia per cell robust z, rep 2 = -1.43; Wolbachia per cell robust z, rep 3 = 0.578
CR18166 (GeneID 8673968) #3: Wolbachia per cell robust z, rep 1 = -1.48; Wolbachia per cell robust z, rep 2 = 0.359; Wolbachia per cell robust z, rep 3 = 0.552
PIP5K59B (GeneID 37633) #1: Wolbachia per cell robust z, rep 1 = -6.7; Wolbachia per cell robust z, rep 2 = -0.707; Wolbachia per cell robust z, rep 3 = -5.53
PIP5K59B (GeneID 37633) #2: Wolbachia per cell robust z, rep 1 = -4.02; Wolbachia per cell robust z, rep 2 = 0.751; Wolbachia per cell robust z, rep 3 = -0.386
CG15142 (GeneID 35059) #1: Wolbachia per cell robust z, rep 1 = 1.37; Wolbachia per cell robust z, rep 2 = 0.806; Wolbachia per cell robust z, rep 3 = 0.438
CG15142 (GeneID 35059) #2: Wolbachia per cell robust z, rep 1 = -0.221; Wolbachia per cell robust z, rep 2 = 0.422; Wolbachia per cell robust z, rep 3 = -0.519
CG42305 + CG17325: Wolbachia per cell robust z, rep 1 = -4.87; Wolbachia per cell robust z, rep 2 = -3.32; Wolbachia per cell robust z, rep 3 = 2.26
CG7747 (GeneID 36820) #1: Wolbachia per cell robust z, rep 1 = 0.728; Wolbachia per cell robust z, rep 2 = -7.06; Wolbachia per cell robust z, rep 3 = -0.565
CG7747 (GeneID 36820) #2: Wolbachia per cell robust z, rep 1 = 0.0644; Wolbachia per cell robust z, rep 2 = -0.419; Wolbachia per cell robust z, rep 3 = 0.442
CG16972 (GeneID 34715): Wolbachia per cell robust z, rep 1 = -0.36; Wolbachia per cell robust z, rep 2 = -1.57; Wolbachia per cell robust z, rep 3 = -0.894
CG12540 (GeneID 32393): Wolbachia per cell robust z, rep 1 = -0.068; Wolbachia per cell robust z, rep 2 = -1.05; Wolbachia per cell robust z, rep 3 = 0.628
